# Mutational interference map of HIV-1 RNA dimerization

Sequence of the HIV-1 NL4-3 5' RNA, positions 1 to 437, as numbered in the source:
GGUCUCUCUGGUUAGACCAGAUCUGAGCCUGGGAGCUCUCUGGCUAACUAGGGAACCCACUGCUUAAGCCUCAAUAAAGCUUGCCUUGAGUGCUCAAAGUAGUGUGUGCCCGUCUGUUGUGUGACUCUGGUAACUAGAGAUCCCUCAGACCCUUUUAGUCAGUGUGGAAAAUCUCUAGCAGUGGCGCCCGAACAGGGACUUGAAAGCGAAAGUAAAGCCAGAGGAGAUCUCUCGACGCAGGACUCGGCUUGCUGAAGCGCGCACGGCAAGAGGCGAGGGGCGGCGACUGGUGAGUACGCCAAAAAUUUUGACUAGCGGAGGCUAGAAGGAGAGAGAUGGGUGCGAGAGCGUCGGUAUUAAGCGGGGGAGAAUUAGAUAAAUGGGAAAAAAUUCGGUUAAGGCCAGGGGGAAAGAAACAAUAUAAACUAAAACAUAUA

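Mutant RNA libraries with 1G, 2G or 3G starts, with or without cap, were folded at 37 °C for 30 min. Monomer and dimer bands were cut from native gels after folding in high salt (300 mM KCl, 5 mM MgCl2) or low salt (40 mM KCl, 0.1 mM MgCl2). Kdimer compares mutation frequencies in monomer and dimer, corrected for sequencing errors.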

Scale: median log2 Kdimer over the changes at a position; positive = changes inhibit dimerization, negative = changes enhance it.
One numbering serves 1G, 2G and 3G.
A position is written with its base.

With U351 the assay gave 3G uncapped high-salt 0.09; 3G capped high-salt 0.16.
With C352 the assay gave 3G uncapped high-salt 0.11; 3G capped high-salt -0.10.
With G353 the assay gave 3G uncapped high-salt 0.00; 3G capped high-salt 0.07.
With G354 the assay gave 3G uncapped high-salt -0.10; 3G capped high-salt -0.07.
With U355 the assay gave 3G uncapped high-salt 0.07; 3G capped high-salt 0.10.
With A356 the assay gave 3G uncapped high-salt 0.01; 3G capped high-salt 0.11.
With U357 the assay gave 3G uncapped high-salt 0.03; 3G capped high-salt 0.02.
With U358 the assay gave 3G uncapped high-salt 0.06; 3G capped high-salt -0.04.
With A359 the assay gave 3G uncapped high-salt 0.09; 3G capped high-salt 0.05.
With A360 the assay gave 3G uncapped high-salt 0.04; 3G capped high-salt -0.08.
With G361 the assay gave 3G uncapped high-salt 0.09; 3G capped high-salt 0.15.
With C362 the assay gave 3G uncapped high-salt 0.21; 3G capped high-salt 0.15.
With G363 the assay gave 3G uncapped high-salt 0.14; 3G capped high-salt 0.24.
With G364 the assay gave 3G uncapped high-salt -0.06; 3G capped high-salt -0.04.
With G365 the assay gave 3G uncapped high-salt 0.16; 3G capped high-salt 0.09.
With G366 the assay gave 3G uncapped high-salt 0.12; 3G capped high-salt 0.01.
With G367 the assay gave 3G uncapped high-salt 0.24; 3G capped high-salt 0.20.
With A368 the assay gave 3G uncapped high-salt 0.28; 3G capped high-salt 0.15.
With G369 the assay gave 3G uncapped high-salt 0.12; 3G capped high-salt 0.32.
With A370 the assay gave 3G uncapped high-salt 0.03; 3G capped high-salt 0.06.
With A371 the assay gave 3G uncapped high-salt 0.05; 3G capped high-salt -0.04.
With U372 the assay gave 3G uncapped high-salt -0.09; 3G capped high-salt -0.09.
With U373 the assay gave 3G uncapped high-salt -0.11; 3G capped high-salt 0.03.
With A374 the assay gave 3G uncapped high-salt 0.14; 3G capped high-salt 0.00.
With G375 the assay gave 3G uncapped high-salt 0.01; 3G capped high-salt 0.13.
With A376 the assay gave 3G uncapped high-salt 0.01; 3G capped high-salt 0.02.
With U377 the assay gave 3G uncapped high-salt 0.04; 3G capped high-salt -0.08.
With A378 the assay gave 3G uncapped high-salt -0.01; 3G capped high-salt 0.08.
With A379 the assay gave 3G uncapped high-salt 0.06; 3G capped high-salt -0.10.
With A380 the assay gave 3G uncapped high-salt 0.04; 3G capped high-salt -0.02.
With U381 the assay gave 3G uncapped high-salt -0.04; 3G capped high-salt -0.04.
With G382 the assay gave 3G uncapped high-salt 0.10; 3G capped high-salt -0.04.
With G383 the assay gave 3G uncapped high-salt 0.23; 3G capped high-salt 0.08.
With G384 the assay gave 3G uncapped high-salt -0.15; 3G capped high-salt -0.38.

Excerpt, the final 4 entries:

| position | domain | 3G uncapped high-salt | 3G capped high-salt |
|---|---|---|---|
| U381 | none | -0.04 | -0.04 |
| G382 | none | 0.10 | -0.04 |
| G383 | none | 0.23 | 0.08 |
| G384 | none | -0.15 | -0.38 |

Reference: Ye et al. 2022, doi:10.1038/s41594-022-00746-2.